Measured values from several laboratories, pooled; numbers as filed in NIAID ChemDB.

All rows: cytotoxicity tests; cells: HEL; read-out: CC50

CCn is the concentration with n% toxicity to the cells. Rows are shuffled and stem from different studies. Blank or dashed fields: not listed here.

smiles | read by | result
Cc1ccn2c(CSCc3ccccc3)c(C3CC3C)nc2c1 |  | >50 µg/mL
O=S(=O)(Cc1ccccc1)c1ncccc1O |  | >20 µg/mL
COc1ccc2c(c1)OC1(C=C2)N(C)c2ccccc2C1(C)C |  | 18.9 µM
OCCOCc1c(-c2ccccc2)nc2ccccn12 |  | 130 µg/mL
Cc1ccc(C)c(CS(=O)(=O)c2c(O)ccc[n+]2[O-])c1 |  | >20 µg/mL
C=CCCCc1cc2cn([C@H]3C[C@H](O)[C@@H](CO)O3)c(=O)nc2o1 |  | >200 µM
Cc1ccc(OCCCc2cc3cn([C@H]4C[C@H](O)[C@@H](CO)O4)c(=O)nc3o2)cc1 |  | >200 µM
Nc1ncnc2c1ncn2C[C@@H](CO)OCP(=O)(O)O |  | 62 µM
CCCCCCCCc1cc2cn(COCCO)c(=O)nc2o1 |  | >200 µM
N#C/C(=C/c1c(Cl)cccc1Cl)S(=O)(=O)c1cccc[n+]1[O-] |  | 3.4 µg/mL
O=c1[nH]c(=O)n([C@@H]2O[C@H](CO)[C@@H](O)[C@@H]2O)cc1/C=C/Br |  | >573 µM
Nc1nc2c(ncn2[C@@H]2CO[C@H](CO)[C@@H](O)C2)c(=O)[nH]1 |  | 20 µg/mL
O=c1[nH]c(=O)n([C@H]2C[C@H](O)[C@@H](CO)O2)cc1-c1ccc(Br)s1 |  | 155 µg/mL
Cc1cccn2c(CSCc3ccccc3)cnc12 |  | >50 µg/mL
Cc1cccc(CS(=O)(=O)c2cccc[n+]2[O-])c1 |  | 23 µg/mL
O=c1[nH]c(=O)n([C@H]2C[C@H](O)[C@@H](CO)O2)cc1/C=C/Br |  | >200 µg/mL
O=c1ccn(C/C=C/c2ccccc2)c(=O)n1Cc1cc(F)cc(F)c1 | MTT | 51 µM
CCCCC#Cc1c[nH]c(=O)[nH]c1=O |  | 200 µM
O=c1[nH]c(=O)n([C@H]2C[C@H](O)[C@@H](CO)O2)cc1/C=C/Br |  | >600 µM
Cc1ccc(C)c(CS(=O)(=O)c2cccc(C)[n+]2[O-])c1 |  | ≥100 µg/mL
O=c1[nH]c(=O)n([C@H]2C[C@H](O)[C@@H](CO)O2)cc1C#CC#Cc1ccccn1 |  | 1.5 µM
O=C1O/C(=C\Cn2cc(C(F)(F)F)c(=O)[nH]c2=O)C(O)=C1O |  | >50 µg/mL
O=c1ccn(C/C=C/c2ccccc2)c(=O)n1Cc1cc(Cl)cc(Cl)c1 | MTT | >100 µM
C#CCCCc1cc2cn([C@H]3C[C@H](O)[C@@H](CO)O3)c(=O)nc2o1 |  | >200 µM
O=C1O/C(=C\Cn2ccc(=O)[nH]c2=O)C(O)=C1O |  | >50 µg/mL
C=CCCCCCCCCc1cc2cn([C@H]3C[C@H](O)[C@@H](CO)O3)c(=O)nc2o1 |  | >200 µM
Cc1ccn2c(CSCc3ccccc3)c(-c3ccncc3)nc2c1 |  | >50 µg/mL
Cc1cc(CS(=O)(=O)c2cccc[n+]2[O-])ccc1[N+](=O)[O-] |  | 4.9 µg/mL
COc1ccc2c(c1)OC1(C=C2)N(C)c2ccc(Cl)cc2C1(C)C |  | 32.1 µM
Cc1ccc(C)c(C(Cc2ccccc2)S(=O)(=O)c2cccc[n+]2[O-])c1 |  | 19 µg/mL
O=c1[nH]c(=O)n([C@H]2C[C@H](O)[C@@H](CO)O2)cc1-c1ccc(Cl)s1 |  | >50 µg/mL
O=c1nc2occc2cn1COCCO |  | >200 µM
COc1ccc(CS(=O)c2cccc[n+]2[O-])cc1 |  | 2.1 µg/mL
Cc1ccn2c(CSCc3ccccc3)cnc2c1 |  | 45 µg/mL
Nc1nccc2c1ncn2C[C@@H](CO)OCP(=O)(O)O |  | 9 µg/mL
Nc1ncnc2c1ccn2[C@@H]1C[C@H](O)[C@@H](O)[C@H]1O |  | >200 µg/mL
C=CCCCCc1cc2cn([C@H]3C[C@H](O)[C@@H](CO)O3)c(=O)nc2o1 |  | >200 µM
CC(C)c1ccc(CS(=O)(=O)c2cccc[n+]2[O-])cc1 |  | 9.4 µg/mL
C#CCCCc1cc2cn([C@H]3C[C@H](O)[C@@H](CO)O3)c(=O)nc2o1 |  | >200 µM
Nc1nc2c(ncn2COC(CO)CO)c(=O)[nH]1 |  | 674.2 µM
C#CCCCCCc1cc2cn([C@H]3C[C@H](O)[C@@H](CO)O3)c(=O)nc2o1 |  | >200 µM
Nc1ncc2ncn([C@H]3CCC[C@H]3CO)c2n1 |  | >50 µg/mL
O=c1nc2oc(CCCCOc3ccccc3)cc2cn1[C@H]1C[C@H](O)[C@@H](CO)O1 |  | >200 µM
Nc1ccn([C@@H]2CO[C@H](CO)[C@@H](O)C2)c(=O)n1 |  | 2 µg/mL
Cc1ccc(C)c(C(C)S(=O)(=O)c2cccc(Cl)[n+]2[O-])c1 |  | 4.5 µg/mL
Nc1ccn(C[C@@H](CO)OCP(=O)(O)O)c(=O)n1 |  | 200 µg/mL
CCCCCCCCc1cc2cn([C@H]3C[C@H](O)[C@@H](CO)O3)c(=O)nc2s1 |  | 53 µM
Nc1ccn(C[C@@H](CO)OCP(=O)(O)O)c(=O)n1 |  | 236.3 µM
Cn1cc(C(=O)O)c(=O)c2cc(N)c(N3CCN(c4nc5ccccc5o4)CC3)cc21 |  | 0.15 µg/mL
Cc1ccn2c(CSCc3ccccc3)c(-c3cccnc3)nc2c1 |  | >50 µg/mL
C[C@H](NC(=O)N1C(=O)C[C@@]1(Cc1ccccc1)C(=O)O)c1ccccc1 |  | 187 µM
CCCCCCCCCCCCc1cc2cn([C@H]3C[C@H](O)[C@@H](CO)O3)c(=O)nc2o1 |  | >200 µM
CC1(C)[C@@H](CO)CC[C@@]1(C)Cn1cc(I)c(=O)[nH]c1=O |  | >50 µg/mL
CCCCCCCCCCc1cc2cn(COCCO)c(=O)nc2o1 |  | >200 µM
O=c1[nH]c(=O)n([C@@H]2CO[C@H](CO)[C@@H](O)C2)cc1I |  | >50 µg/mL
CCCCc1cc2cnc(=O)[nH]c2o1 |  | >200 µM
C[C@@H](NC(=O)C1(Cc2ccccc2)CCN1C(=O)OCc1ccccc1)C(N)=O |  | 50 µM
CN1c2ccc(Cl)cc2C(C)(C)C12C=Cc1c(ccc3ccccc13)O2 |  | 119.2 µM
C[C@H](NC(=O)C1(Cc2ccccc2)CCN1C(=O)OCc1ccccc1)C(N)=O |  | 124 µM
Cc1c(Cl)c(Cl)c(CS(=O)(=O)c2cccc[n+]2[O-])c(Cl)c1Cl |  | 2 µg/mL
C#CCCCCCCc1cc2cn([C@H]3C[C@H](O)[C@@H](CO)O3)c(=O)nc2o1 |  | >200 µM
Nc1nc2c(ncn2COC(CO)CO)c(=O)[nH]1 |  | 45.3 µg/mL
CCCCCCCCCCCCc1cc2cn([C@H]3C[C@H](O)[C@@H](CO)O3)c(=O)nc2[nH]1 |  | >200 µM
O=c1nc2oc(CCCCCCCCCBr)cc2cn1[C@H]1C[C@H](O)[C@@H](CO)O1 |  | >50 µM
CCc1ccc(OCCCc2cc3cn([C@H]4C[C@H](O)[C@@H](CO)O4)c(=O)nc3o2)cc1 |  | >200 µM
Cc1ccc(C)c(C(Cl)S(=O)(=O)c2ccccn2)c1 |  | 38 µg/mL
CCCCc1cc2cn([C@H]3C[C@H](O)[C@@H](CO)O3)c(=O)nc2s1 |  | >200 µM
CC1(C)[C@@H](CO)CC[C@@]1(C)Cn1cc(Br)c(=O)[nH]c1=O |  | >50 µg/mL
Cc1ccc(CS(=O)(=O)c2cccc[n+]2[O-])cc1[N+](=O)[O-] |  | 5.8 µg/mL
O=c1[nH]c(=O)n([C@H]2C[C@H](O)[C@@H](CO)O2)cc1F |  | 0.4 µg/mL
C[C@@H](NC(=O)N1C(=O)C[C@]1(Cc1ccccc1)C(=O)O)c1ccccc1 |  | >200 µM
CC(C)(C)[Si](C)(C)OC[C@H]1O[C@@H](n2ccc3nc(CN)cn3c2=O)[C@H](O[Si](C)(C)C(C)(C)C)[C@@H]1O[Si](C)(C)C(C)(C)C |  | 9.6 µM
Nc1ccn(C[C@@H](CO)OCP(=O)(O)O)c(=O)n1 | MTT | 63 µM
Cn1cc(C(=O)O)c(=O)c2cc(N)c(N3CCN(c4nccs4)CC3)cc21 |  | 4.9 µg/mL
Nc1nc(=O)n([C@H]2C[C@H](O)[C@@H](CO)O2)cc1-c1cccs1 |  | 45 µg/mL
CCCc1ccc(C#CC#Cc2cn([C@H]3C[C@H](O)[C@@H](CO)O3)c(=O)[nH]c2=O)cc1 |  | 52 µM
O=C(O)CP(=O)(O)O |  | 344 µM
Nc1nc(=O)n([C@H]2C[C@H](O)[C@@H](CO)O2)cc1/C=C/Cl |  | >727 µM
CCCCCCCCc1cc2cn([C@H]3C[C@H](O)[C@@H](CO)O3)c(=O)nc2[nH]1 |  | >50 µM
CC(C)(C)OC(=O)[C@]1(Cc2ccccc2)CC(=O)N1C(=O)Nc1ccccc1 |  | 118 µM
O=c1[nH]c(=O)n([C@H]2C[C@H](O)[C@@H](CO)O2)cc1C#CC#Cc1ccc(OC(F)(F)F)cc1 |  | 55 µM
O=C(O)CP(=O)(O)O |  | 500 µM
CC1(C)[C@@H](CO)CC[C@@]1(C)Cn1nnc2c(Cl)ncnc21 |  | >50 µg/mL
Cc1ccc(C)c(C(C)S(=O)(=O)c2ccc(C)c[n+]2[O-])c1 |  | ≥100 µg/mL
C[C@@H](NC(=O)N1C(=O)C[C@@]1(Cc1ccccc1)C(=O)O)c1ccccc1 |  | >200 µM
CCCCCCCCCCc1cc2cn([C@H]3C[C@H](O)[C@@H](CO)O3)c(=O)nc2o1 |  | >50 µM
CCCCCCCCCCc1cc2cn([C@H]3C[C@H](O)[C@@H](CO)O3)c(=O)nc2n1CCC |  | 47 µM
Nc1cc2c(=O)c(C(=O)O)cn(C3CC3)c2cc1N1CCN(c2cccc(C(F)(F)F)c2)CC1 |  | 2.3 µg/mL
Cc1cc(C#CC#Cc2cn([C@H]3C[C@H](O)[C@@H](CO)O3)c(=O)[nH]c2=O)ccc1F |  | 45 µM
Nc1nc2c(ncn2[C@H]2CCC[C@H]2CO)c(=O)[nH]1 |  | >50 µg/mL
Cc1ccn2c(CSCc3ccccc3)c(-c3cccs3)nc2c1 |  | 14 µg/mL
C#Cc1cn(S(=O)(=O)c2ccc(C)cc2)c(=O)[nH]c1=O |  | 29 µM
O=c1[nH]c(=O)n([C@H]2C[C@H](O)[C@@H](CO)O2)cc1C#CCCCCCCCCCBr |  | 97 µM
Nc1nc2c(ncn2COC(CO)CO)c(=O)[nH]1 |  | 154 µg/mL
Cc1ccn2c(CSCc3ccccc3)c(-c3ccccn3)nc2c1 |  | 50 µg/mL
Cc1ccc(C)c(CS(=O)(=O)c2ccccn2)c1 |  | 51 µg/mL
CC(=O)O[C@@H]1CC[C@H](O)[C@@]2(C)CC/C(C(C)C)=C\C=C(/C)CCC1O2 |  | >50 µg/mL
C=CCCCCCCCCc1cc2cn([C@H]3C[C@H](O)[C@@H](CO)O3)c(=O)nc2o1 |  | >200 µM
COc1ccc(CSc2cc(C(C)(C)C)cc[n+]2[O-])cc1 |  | 48 µg/mL
CCCCCCc1cc2cn([C@H]3C[C@H](O)[C@@H](CO)O3)c(=O)nc2[nH]1 |  | >50 µM
COc1cc(CS(=O)(=O)c2cccc[n+]2[O-])cc(OC)c1OC |  | 51 µg/mL
Nc1nc2ncn(CCOCP(=O)(O)O)c2c(=O)[nH]1 |  | 7 µg/mL
Nc1nc2c(ncn2COCCO)c(=O)[nH]1 |  | 533 µM
Nc1nc(N)c2ncn([C@H]3CCC[C@H]3CO)c2n1 |  | >50 µg/mL
CCC(c1cc(C)ccc1C)S(=O)(=O)c1cccc[n+]1[O-] |  | >20 µg/mL
CCCCCCCCC#Cc1cn(S(=O)(=O)c2ccc(C)cc2)c(=O)[nH]c1=O |  | 31 µM
CCCCCCCCCc1cc2cn(COCCO)c(=O)nc2o1 |  | ≥100 µM
CC(=O)OCC12CCC3C(CCC4CC(O)CCC43C)C1CC(O)C21OC1C(OC(C)=O)C(C)C(C)C(C)(C)OC(C)=O | MTT | >50 µg/mL

The first 16 rows once more:

smiles	read by	result
Cc1ccn2c(CSCc3ccccc3)c(C3CC3C)nc2c1		>50 µg/mL
O=S(=O)(Cc1ccccc1)c1ncccc1O		>20 µg/mL
COc1ccc2c(c1)OC1(C=C2)N(C)c2ccccc2C1(C)C		18.9 µM
OCCOCc1c(-c2ccccc2)nc2ccccn12		130 µg/mL
Cc1ccc(C)c(CS(=O)(=O)c2c(O)ccc[n+]2[O-])c1		>20 µg/mL
C=CCCCc1cc2cn([C@H]3C[C@H](O)[C@@H](CO)O3)c(=O)nc2o1		>200 µM
Cc1ccc(OCCCc2cc3cn([C@H]4C[C@H](O)[C@@H](CO)O4)c(=O)nc3o2)cc1		>200 µM
Nc1ncnc2c1ncn2C[C@@H](CO)OCP(=O)(O)O		62 µM
CCCCCCCCc1cc2cn(COCCO)c(=O)nc2o1		>200 µM
N#C/C(=C/c1c(Cl)cccc1Cl)S(=O)(=O)c1cccc[n+]1[O-]		3.4 µg/mL
O=c1[nH]c(=O)n([C@@H]2O[C@H](CO)[C@@H](O)[C@@H]2O)cc1/C=C/Br		>573 µM
Nc1nc2c(ncn2[C@@H]2CO[C@H](CO)[C@@H](O)C2)c(=O)[nH]1		20 µg/mL
O=c1[nH]c(=O)n([C@H]2C[C@H](O)[C@@H](CO)O2)cc1-c1ccc(Br)s1		155 µg/mL
Cc1cccn2c(CSCc3ccccc3)cnc12		>50 µg/mL
Cc1cccc(CS(=O)(=O)c2cccc[n+]2[O-])c1		23 µg/mL
O=c1[nH]c(=O)n([C@H]2C[C@H](O)[C@@H](CO)O2)cc1/C=C/Br		>200 µg/mL